# Measured values reported in article doi:10.1101/2020.02.18.954925v1 (biorxiv, 2020).
# Test system: Nc1ncnc2c1ncn2[C@@H]1O[C@H](COP(=O)(O)OP(=O)(O)OP(=O)(O)O)[C@@H](O)[C@H]1O
# Assay: purified protein
# Details: pH 7.5; 25.0 °C
substance,measurement,value
Lpg2603 10-C (Legionella pneumophila subsp. pneumophila str. Philadelphia 1),Km,18.09 µM
